Laboratory results published in doi:10.1101/2023.01.09.523197.

Test system: GlnR + RNAP holoenzyme
Test: EMSA

Sequence: ACCGTGCCTTCGTCACGGCGGCGAAACAACGAGGGGCTTCCACCGAAACCGCGCTGCGTCAATGTCGTGGCGCATAACCGGCCCACCCCTCACCGCCCGCCCGCCAGGCACGTACGAAGGAAGGATTGGTATGTGGTATATTCGTACGTGCC (double strand) [amtB4 DNA]
- binding result: binds

Construct, isoform or probe ends are uncertain for at least one entry. At least one verdict rests on a figure or table, not on a statement of the authors.
